{"source": "patent US9161533B2", "about": "“Plant pathogen resistance” (priority 2007, dated 2015)", "assay": "GC-MS level of azelaic acid in petiole exudates", "design": "species or system Arabidopsis", "details": "Col-Pex, PmaDG6, 72 hrs", "data": [{"smiles": "O=C(O)CCCCCCCC(=O)O", "note": "[azelaic acid]", "values": [{"measurement": "azelaic acid level in pathogen-induced exudates", "value": 31.6, "unit": "µM"}]}]}
